From patent publication US20250026813A1, “Antibodies against sars-cov-2 and uses thereof” (published 2025)

B1: IMPI-029 (antibody, V domains shown)
VH: EVQLVESGGGLIQPGGSLRLSCAASGVTVSSNYMNWVRQAPGKGLEWVSVIYSGGSTYYADSVKGRFTISRDNSKNTLFLQMNSLRAEDSAVYYCARDLGPYGVDVWGQGTTVTVSS
VL: DIQLTQSPSFLSASVGDRVTITCWASQGISSYLAWYQQKPGKAPKLLIYAASTLQSGVPSRFSGSGSGTEFTLTISSLQPEDFATYYCQELNSYPLTFGQGTRLEIK
B2: IMPI-047 (antibody, V domains shown)
VH: EVQLVESGGGLIQPGGSLRLSCAASGFTVSSNYMNWVRQAPGKGLEWVSVIYSGGSTYYADSVKGRFTISRDNSKNTLYLQMNSLRTEDTAVYYCARDLVAYGMDVWGQGTTVTVSS
VL: DIQLTQSPSFLSASVGDRVTITCWASQGISSYLAWYQQKPGKAPKVLIYAASTLQSGVPSRFSGSGSGTEFTLTISSLQPEDFATYYCQLLNSNPLTFGGGTKVEIK
B3: IMPI-005 (antibody, V domains shown)
VH: EVQLVESGGGLIQPGGSLRLSCAASGFTVSSNYMNWVRQAPGKGLEWVSVIYSGGSTYYADSVKGRFTISRDNSKNTLFLQMNSLRAEDSAVYYCARDLGPYGVDVWGQGTTVTVSS
VL: DIQLTQSPSFLSASVGDRVTITCWASQGISSYLAWYQQKPGKAPKLLIYAASTLQSGVPSRFSGSGSGTEFTLTISSLQPEDFATYYCQELNSYPLTFGQGTRLEIK
B4: IMPI-006 (antibody, V domains shown)
VH: QLQLQESGPGLVKPSETLSLTCTVSGGSISNSNYYWGWIRQPPGKGLEWIGSIYYSGRTYYNPSLKSRVTISVDTSKNQFSLKLSSVTAADTAVYYCARMGLLWFGEFYGMDVWGQGTTVTVSS
VL: DIQMTQSPSSLSASVGDRVTITCRASQGISSWLAWYQQKPEKAPKSLIYDASSLQRGVPSRFSGSGSGTDFTLTISSLQPEDFASYYCQQYNSYPLTFGGGTRVEIK
B5: IMPI-055 (antibody, V domains shown)
VH: QVQLVQSGAEVKKPGASVKVSCKASGYTFTSYDINWVRQATGQGLEWMGWMNPNSGNTGYAQKFQGRVTMTRDTSINTAYMELSSLRSEDTAVYFCARGGRYCSDVTCYSGEPFDYWGQGTLVTVSS
VL: EIMLTQSPDFQSVTPKEKVTITCRASQSIGSSLHWYQQKPDQSPKLLIKFASQSISGVPSRFSGSGSGTDFTLTINSLEAEDAAAYYCHQSSSLPHTFGPGTKVEIK
B6: IMPI-054 (antibody, V domains shown)
VH: EVQLVESGGGLIQPGGSLRLSCAASGLTVSSNYMSWVRQAPGKGLEWVSIIYSGGSTYYADSVKGRFTISRDNSKNTLYLQMNSLRAEDTAVYYCARLGGYYYYGMDVWGQGTTVTVSS
VL: DIQMTQSPSSLSASVGERVTITCQASQDIRNYLNWYQKKPGKAPKLLIYDSSNLETGVPSRFSGSGSGTDFTFTISSLQPEDIATYYCQQYDNLPITFGQGTRLEIK
B7: IMPI-017 (antibody, V domains shown)
VH: EVQLVESGGGLIQPGGSLRLSCAAAGLTVSSNYMNWVRQVPGKGLEWVSVIYSGGSTYYADSVKGRFTISRDNSKNTLYLQMNSLRAEDTAVYYCARDLGTLGMDVWGQGTTVTVSS
VL: DIQLTQSPSFLSASVGDRVTITCWASQGISTYLAWYQQKPGKAPKLLIYAASTLQSGVPSRFSGSGSGTEFTLTISSLQPEDFATYYCQQLNSYLPTFGQGTKVEIK
B8: IMPI-059 (antibody, V domains shown)
VH: EVQLVESGGGLIQPGGSLRLSCAASGFTVSSIYMSWVRQAPGKGLEWVSIIYSRGSTDYADSVKGRFTISRDISKNTLYLQMNSLRAEDTAVYYCARDGTMVRGVHAFDIWGQGTMVTVSS
VL: DIQMTQSPPSLSASIGDRVTITCQASQDISNYLNWYQQKPGKAPKLLIYDASNLETGVPSRFSGSGSGTDFTLTISNLQPEDIVTYYCQQYDNLPSSFGQGTKLEIK
B9: IMPI-060 (antibody, V domains shown)
VH: EVQLVESGGGLIQPGGSLRLSCAASGVTVSSNYMSWVRQAPGKGLEWVSVIYSGGSTFYADSVKGRFTISRDNSKNTLYLQMNSLRAEDTAVYYCARDLSYYGMDVWGQGTTVTVSS
VL: DIQLTQSPSFLSASVGDRVTITCWASQGISSYLAWYQQKPGKAPKLLIYAASTLQSGVPSKFSGSGSGTEFTLTISSLQPEDFATYYCQQLNSYPSSFGQGTKLEIK
B10: IMPI-002 (antibody, V domains shown)
VH: EVQLVESGGGLIQPGGSLRLSCAASGVTVSSNYMSWVRQAPGKGLEGVSVIYSGGSTYYADSVKGRFTISRDNSKNTLYLQMNSLRAEDTAVYYCARDTVVYGMDVWGQGTTVTVSS
VL: DIQLTQSPSFLSASVGDRVTITCWASQGISSYLAWYQQKPGKAPKLLIYAASTLQSGVPSRFSGSGSGTEFTLTISSLQPEDFATYYCQQLNSYPLTFGGGTKVEIK
B11: IMPI-029 (antibody, V domains shown)
VH: EVQLVESGGGLIQPGGSLRLSCAASGVTVSSNYMNWVRQAPGKGLEWVSVIYSGGSTYYADSVKGRFTISRDNSKNTLFLQMNSLRAEDSAVYYCARDLGPYGVDVWGQGTTVTVSS
VL: DIQLTQSPSFLSASVGDRVTITCWASQGISSYLAWYQQKPGKAPKLLIYAASTLQSGVPSRFSGSGSGTEFTLTISSLQPEDFATYYCQELNSYPLTFGQGTRLEIK
B12: IMPI-047 (antibody, V domains shown)
VH: EVQLVESGGGLIQPGGSLRLSCAASGFTVSSNYMNWVRQAPGKGLEWVSVIYSGGSTYYADSVKGRFTISRDNSKNTLYLQMNSLRTEDTAVYYCARDLVAYGMDVWGQGTTVTVSS
VL: DIQLTQSPSFLSASVGDRVTITCWASQGISSYLAWYQQKPGKAPKVLIYAASTLQSGVPSRFSGSGSGTEFTLTISSLQPEDFATYYCQLLNSNPLTFGGGTKVEIK
B13: IMPI-052 (antibody, V domains shown)
VH: EVQLVESGGGLIQPGGSLRLSCAASGVTVSSNYMNWVRQAPGKGLEGVSVIYSGGTTYYADSVKGRFTISRDNSKNTLYLQMNSLRAEDTAVYYCARDTVVYGMDVWGQGTTVTVSS
VL: DIQLTQSPSFLSASVGDRVTITCWASQGISSYLAWYQQKPGKAPKLLIYTASTLQSGVPSRFSGSGSGTEFTLTISSLQPEDFATYYCQQLNSYPLTFGGGTKVEIK
B14: IMPI-005 (antibody, V domains shown)
VH: EVQLVESGGGLIQPGGSLRLSCAASGFTVSSNYMNWVRQAPGKGLEWVSVIYSGGSTYYADSVKGRFTISRDNSKNTLFLQMNSLRAEDSAVYYCARDLGPYGVDVWGQGTTVTVSS
VL: DIQLTQSPSFLSASVGDRVTITCWASQGISSYLAWYQQKPGKAPKLLIYAASTLQSGVPSRFSGSGSGTEFTLTISSLQPEDFATYYCQELNSYPLTFGQGTRLEIK
B15: IMPI-017 (antibody, V domains shown)
VH: EVQLVESGGGLIQPGGSLRLSCAAAGLTVSSNYMNWVRQVPGKGLEWVSVIYSGGSTYYADSVKGRFTISRDNSKNTLYLQMNSLRAEDTAVYYCARDLGTLGMDVWGQGTTVTVSS
VL: DIQLTQSPSFLSASVGDRVTITCWASQGISTYLAWYQQKPGKAPKLLIYAASTLQSGVPSRFSGSGSGTEFTLTISSLQPEDFATYYCQQLNSYLPTFGQGTKVEIK
B16: IMPI-022 (antibody, V domains shown)
VH: EVQLVESGGGLVQPGRSLRLSCAASGFTFDDYAMHWVRQAPGKGLEWVSGITWNSGSIGYADSVKGRFTISRDNAKNSLYLHMNSLRVEDTALYYCAKDLQGDYYYYGVDVWGQGTTVTVSS
VL: AIQLTQSPSSLSASVGDRVTITCRASQGISSALAWYQQKPGKAPKLLLYDASSLVSGVPSRFSGSRSGTDFTLTISSLQPEDFATYYCQQFISYPLTFGGGTRVEIK
B17: IMPI-024 (antibody, V domains shown)
VH: EVQLVQSGAEVKKPGESLKISCKGSGYSFTSYWIGWVRQMPGKGLEWMGIIYPGDSDTRYSPSFQGQVTISADKSISTAYLQWSSLKASDTAMYYCVRSYNWNYFDYWGQGTLVTVSS
VL: AIQLTQSPSSLSASVGDRVTITCRASQGISSGLAWYQQKAGKAPKLLIYDVSSLESGVPSRFSGSGSGTDFTLTISSLQPEDFATYYCQQFLSYPWTFGQGTKVEIK
B18: IMPI-028 (antibody, V domains shown)
VH: EVQLVESGGGLIQPGGSLRLSCAASGFTVSSNYMSWVRQAPGKGLEWVSVIYSGGSTYYADSVKGRFTISRDNSKNTLYLQMNSLRAEDTAVYYCARDYGDLYFDYWGQGTLVTVSS
VL: EIVLTQSPGTLSLSPGERATLSCRASQSISSYLAWYQQKPGQAPRLLIYGASSRATGIPDKFSGSGSGTDFTLTISRLEPEDFAVYYCQQYGSSPRTFGQGTKVEIK
B19: IMPI-037 (antibody, V domains shown)
VH: not shown
VL: DIQLTQSPSFLSASVGDRVTITCWASQGINSYLAWYQQKPGKAPKLLIYAASTLQSGVPSRFSGSGSGTEFTLTISSLQPEDFTTYYCQQFNDYPRTFGPGTKVEIK
B20: IMPI-038 (antibody, V domains shown)
VH: QVQLVESGGGVVQPGRSLRLSCAASGFTFSSYGMHWVRQAPGKGLEWVAVISYDGSDKYYADSVKGRFTISRDNSKNTLYLQMNSLRAEDTAVYYCAKTVAGYYYYYYGMDVWGQGTTVTVSS
VL: DIQMTQSPSSVSASVGDRVTVTCRASQDISSWLAWFQQKPGKAPKFLIYDASNLENGVPSRFSGSGSGTDFTLTISSLQPEDFATYYCQQAKSFPWTFGQGTKVEIN
B21: IMPI-042 (antibody, V domains shown)
VH: EVQLVESGGGLIQPGGSLRLSCAASGLTVSSNYMSWVRQAPGKGLEWVSIIYSGGSTYYADSVKGRFTISRDNSKNTLYLQMNSLRAEDTAVYYCARLGGYYYYGMDVWGQGTTVTVSS
VL: DIQMTQSPSSLSASVGERVTITCQASQDIRNYLNWYQKKPGKAPKLLIYDSSNLETGVPSRFSGGGSGTDFTFTISSLQPEDIATYYCQQYDNLPITFGQGTRLEIK

Legend:
Experiment in all cases: cell-based or functional assay
[1] = molecular target: SARS-CoV-2 spike protein on live wild type virus SARS-CoV-2/England/IC19/2020 (SARS-CoV-2, UniProt P0DTC2 14-1273)
[2] = molecular target: SARS-CoV-2 spike protein of the B.1.351 (Beta) strain live virus (SARS-CoV-2)
[3] = molecular target: SARS-CoV-2 spike protein of the WA-1 strain live virus (carrying D614G) (SARS-CoV-2, UniProt P0DTC2 14-1273)

Row | Binder | SARS COV2 neutralisation (complete virus inhibition, pM) [1] [pM] | Live virus B.1.351 strain IC50 [2] [µg/mL] | Live virus WA-1 strain IC50 [3] [µg/mL]
1 | B1 | 781 |  | 
2 | B2 | 781 |  | 
3 | B3 | 1560 |  | 
4 | B4 | 25000 |  | 
5 | B5 | 391 |  | 
6 | B6 | 391 |  | 
7 | B7 | 781 |  | 
8 | B8 | 1560 |  | 
9 | B9 | 12500 |  | 
10 | B10 |  | 15.7 | 
11 | B11 |  |  | 0.002
12 | B12 |  |  | 0.012
13 | B13 |  | 3.7 | 
14 | B14 |  |  | 0.011
15 | B15 |  |  | 0.01
16 | B16 |  | 1.61 | 0.018
17 | B17 |  | 1.24 | 1
18 | B18 |  | 7.44 | 
19 | B19 |  | 0.00038 | 
20 | B20 |  | 5.89 | 
21 | B21 |  |  | 0.012
